PMC9098913, “In vitro reconstitution of Escherichia coli divisome activation” (Nature Communications, 2022)

Assay: Diffusion coefficient of His-tagged FtsAs and His-SUMO on Tris-NTA membranes (FRAP)
Description: To study colocalization of His-tagged variants of FtsA, 0.5–1 µM of Cy5 labelled His-tagged FtsAs were added to the chamber, incubated for 20 min and washed 6x with reaction buffer. […] To control the density of membrane-bound FtsA, SUVs without and with Tris-NTA lipids were mixed to obtain the respective Tris-NTA concentrations. To perform FRET/FRAP experiments, equimolar concentrations of Cy3 and Cy5 labelled His-tagged FtsAs (total 0.5–1 µM) or His-SUMO-Cys were added to a chamber and treated as above. […] FRAP experiments were performed as described before.
Bleaching the acceptor dye leads to an increase in the donor intensity, which can be used to quantify the Foerster Resonance energy transfer (FRET)[48]. FRET efficiency was quantified with E%=Ipost/Ipost+Ipre⋅100 , where Ipost is the intensity of the […] and Ipre is the […]. […] To extract the contribution of both processes, we adjusted a routine recently published by Gerganova et al.[33]. In short, the code provides the contribution of both modes of recovery by analysing the shape of the fluorescence recovery profile. […] Contribution of diffusion leads to a change of the slope of the outer borders of the bleached region (S4h right). Thus, by measuring the change of the slope of the border recovery, diffusion and simple on/off binding can be distinguished. We developed “FRAPdiff”, a graphical user interface, which uses the original fit routine by David Rutkowski. It can be used directly on.tiff movies with annotated bleach regions as ImageJ ROIs. In addition, we added optional bleach correction, user selectable projection axis (x or y), and optional mirroring of the recovery profiles, if bleaching was not symmetric. The original fit routine for estimating the recovery and diffusion dynamics can be found at https://github.com/davidmrutkowski/1DReflectingDiffusion. FRAPdiff is available at 10.5281/zenodo.6400639[49] under the GPLv3 open-source license.

[1] = 2% Tris NTA, without FtsZ, replicate Exp1
[2] = 2% Tris NTA, without FtsZ, replicate Exp2
[3] = 2% Tris NTA, without FtsZ, replicate Exp4

FtsA-His6: FtsA WT (1-405) with amphipathic helix replaced by C-terminal His-tag
Diffusion Coefficient (2% Tris NTA, + FtsZ, replicate Exp1): 1.64e-5 µm2/s
Diffusion Coefficient (2% Tris NTA, + FtsZ, replicate Exp2): 0.00011 µm2/s
Diffusion Coefficient (2% Tris NTA, + FtsZ, replicate Exp3): 0.000662 µm2/s
Diffusion Coefficient [1]: 6.55e-5 µm2/s
Diffusion Coefficient [2]: 0.0237 µm2/s
Diffusion Coefficient [3]: 0.000354 µm2/s
Diffusion Coefficient ([…] Tris NTA, + FtsZ, replicate Exp1): 7.28e-5 µm2/s
Diffusion Coefficient ([…] Tris NTA, + FtsZ, replicate Exp2): 1.56e-15 µm2/s
Diffusion Coefficient ([…] Tris NTA, + FtsZ, replicate Exp3): 0.0017 µm2/s
Diffusion Coefficient ([…] Tris NTA, + FtsZ, replicate Exp4): 0.00179 µm2/s
Diffusion Coefficient ([…] Tris NTA, + FtsZ, replicate Exp5): 0.00872 µm2/s
Diffusion Coefficient ([…] Tris NTA, without FtsZ, replicate Exp1): 0.00204 µm2/s
Diffusion Coefficient ([…] Tris NTA, without FtsZ, replicate Exp2): 1.2e-5 µm2/s
Diffusion Coefficient ([…] Tris NTA, without FtsZ, replicate Exp3): 0.000962 µm2/s
Diffusion Coefficient ([…] Tris NTA, without FtsZ, replicate Exp4): 0.00534 µm2/s
Diffusion Coefficient ([…] Tris NTA, without FtsZ, replicate Exp5): 0.0214 µm2/s

B1: His6-SUMO (protein, UniProt Q12306 2-98, looked up)
Ubiquitin-like protein SMT3: SDSEVNQEAKPEVKPEVKPETHINLKVSDGSSEIFFKIKKTTPLRRLMEAFAKRQGKEMDSLRFLYDGIRIQADQTPEDLDMEDNDIIEAHREQIGG
modifications: His6 tag
Diffusion Coefficient [1]: 0.56 µm2/s
Diffusion Coefficient [2]: 0.54 µm2/s
Diffusion Coefficient (2% Tris NTA, without FtsZ, replicate Exp3): 0.60 µm2/s
Diffusion Coefficient [3]: 0.60 µm2/s
